Record: PubChem BioAssay AID1259414 (Drosophila RNAi Screening Center, 2018)

Screen: 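Fly genes that alter Wolbachia amount inside host cells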 (primary screen)
Cell system: Drosophila JW18 cells infected with Wolbachia
Reagent: long dsRNA against Drosophila genes, 0.25 µg dsRNA per well of a 384-well plate
Duration: 5 days
Treatment: cells persistently infected with Wolbachia before knock-down; no added drug
Read-out: 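Automated imaging of bacterial rRNA staining divided by host cell count, reported as plate-normalised robust z-score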
Scale: Wolbachia per cell robust z: higher = more Wolbachia per host cell than the plate typical
Active means: 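Active if absolute robust z reaches 1.5 in two or more of three replicates, leaving out multi- or no-target dsRNAs, genes unexpressed in JW18 and A1 wells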
The screen tested about 24,000 reagents; shown is a random part of those with a known target gene and a result. Over the whole deposit, about 1,210 (5%) are marked active. 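Inactive calls also include excluded dsRNAs with several or no targets, genes unexpressed in JW18, and well A1, regardless of score.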 Names joined by + are all predicted targets of the reagent.

predicted target	amplicon	Wolbachia per cell robust z, rep 1	Wolbachia per cell robust z, rep 2	Wolbachia per cell robust z, rep 3	outcome
Csp	DRSC11860	0.67	-6.1	0.102	inactive
Csp	DRSC40822	-1.55	-0.231	0.865	inactive
CG1113	DRSC12163	1.55	0.869	0.661	inactive
D	DRSC11132	-1.07	0.942	-0.29	inactive
D	DRSC25367	-1.13	0.677	-2.06	inactive
Crag	DRSC18454	0.148	0.572	0.174	inactive
CG34266	DRSC08323	0.0116	-1.14	-1.01	inactive
TTLL12	DRSC06555	-0.43	-0.826	-4.7	inactive
ATPsynGL	DRSC03027	0.134	0.475	0.0944	inactive
ATPsynGL	DRSC28550	1.17	0.821	1.45	inactive
NaPi-T	DRSC07476	-4.18	-4.51	-0.203	active
NaPi-T	DRSC24468	-1.02	0.623	-0.181	inactive
NaPi-T	DRSC41259	0.0422	0.65	-1.33	inactive
PolD3	DRSC01961	-9.85	-0.031	-9.48	inactive
PolD3	DRSC28401	-0.806	0.39	0.271	inactive
CG18641	DRSC00527	0.369	-5.8	2.24	inactive
CG17404	DRSC15234	-4.62	0.112	0.635	inactive
wrm1 + wrm2	DRSC11007	-1.57	-0.727	-3.81	inactive
wrm1 + wrm2	DRSC24006	0.648	-0.356	-0.566	inactive
Bap170	DRSC04964	-0.791	-0.0282	-1.38	inactive
Bap170	DRSC21826	0.0844	0.483	-1.51	inactive
Bap170	DRSC27559	-0.864	-0.63	-0.236	inactive
Pax	DRSC01703	0.00472	0.218	-9.62	inactive
Pax	DRSC02651	0.328	-0.322	0.117	inactive
Pax	DRSC02652	0.4	-0.351	-0.095	inactive
BORCS7 + CG13430	DRSC06392	0.465	0.175	-0.668	inactive
BORCS7 + CG13430	DRSC06707	-1.19	0.254	1.01	inactive
SdhD	DRSC14215	0.256	-0.238	-2.74	inactive
CR30409	DRSC22058	0.366	0.0842	-0.875	inactive
CG17385	DRSC06664	0.876	1.58	-1.01	inactive
CG17385	DRSC26999	-2.01	0.791	1	inactive
CG15382	DRSC00397	-0.392	-0.252	0.446	inactive
CG15382	DRSC24805	0.555	-0.0945	-18.8	inactive
Mthfs	DRSC41340	0.336	-1.76	-0.297	inactive
CG14903	DRSC15024	0.617	-0.524	-0.308	inactive
SP2353	DRSC07545	0.287	-0.459	-0.63	inactive
SP2353	DRSC23895	0.722	0.594	0.821	inactive
CG11629	DRSC03695	0.61	0.228	1.02	inactive
TH1	DRSC20289	0.792	0.816	0.866	inactive
NLaz	DRSC21521	-1.05	0.877	-0.74	inactive
CG32944	DRSC12138	0.241	0.981	-0.435	inactive
CG32944	DRSC12341	0.532	0.465	-0.879	inactive
CG5087	DRSC10479	0.19	0.255	-8.62	inactive
Cfp1	DRSC18128	0.533	0.785	-0.156	inactive
Ir52b	DRSC06263	-3.12	-0.297	-0.418	inactive
ATPsynE	DRSC15476	-1.1	1.49	1.32	inactive
ATPsynE	DRSC30103	1.07	-9.97	0.913	inactive
Vps4	DRSC19338	2.22	2.06	7.52	inactive
Vps4	DRSC25068	3.61	4.04	5.95	inactive
His1:CG33813 + His1:CG33864 + His1:CG33855 + 21 more	DRSC21266	0.446	0.358	0.403	inactive
Sec24CD	DRSC00300	-0.674	1.98	0.944	inactive
CG14722	DRSC14944	0.434	-0.563	-2.54	inactive
CG14722	DRSC24593	-0.689	0.486	0.511	inactive
CG14722	DRSC39066	0.569	0.603	1.19	inactive
sqz	DRSC16980	-1.53	-0.225	-1.99	active
sqz	DRSC28971	0.274	-1.35	-6.29	inactive
RpS19b	DRSC15773	-5.5	0.779	0.894	inactive
t-Grip84	DRSC10904	0.406	0.149	1.31	inactive
ldbr	DRSC10933	-0.162	1.38	-0.00371	inactive
CG33923	DRSC37808	0.576	1.44	0.739	inactive
eIF4E1	DRSC11342	0.545	2.09	1.46	inactive
eIF4E1	DRSC23583	0.0861	2.02	0.0603	inactive
Vha14-2	DRSC12145	0.291	0.282	-6.19	inactive
CG31522	DRSC12005	-1.53	-0.961	0.217	inactive
CG31522	DRSC29792	-5.58	-1.11	-8.14	active
rut	DRSC22976	0.418	-0.259	0.0699	inactive
rut	DRSC39112	-0.8	-0.567	-0.501	inactive
ninaC	DRSC03579	0.404	-0.62	0.418	inactive
ninaC	DRSC29875	0.778	1.18	-3.74	inactive

Just “Wolbachia per cell robust z, rep 1”, for 3 of the entries above:
Csp [DRSC40822]	-1.55
CG1113 [DRSC12163]	1.55
D [DRSC11132]	-1.07
